Results reported in patent US10899795B2, “Modified epitopes for boosting CD4+ T-cell responses” (Katholieke Universiteit Leuven, priority 2012, dated 2021).

Tested on: hemagglutinin-loaded dendritic cells
Test: CD8+ T cell-dependent lysis of hemagglutinin-loaded dendritic cells, 51Cr release, with CD4+ T cells from peptide-immunized mice
Assay type: cell-based, C57BL/6 mice
Settings: CD4+ T cells from mice immunized with the peptide plus CD8+ T cells from hemagglutinin-immunized mice

For YSTVASSLV, the “lysis of hemagglutinin-loaded dendritic cells (51Cr release)” value was “no lysis”.
